# Sequence variants of PSTVd stem 15 after infection

Data from the supplement of Wu et al. 2024, doi:10.1371/journal.ppat.1012142.

PSTVd intermediate strain, stem 15: wild type CUGGAGCGAUCGCUUCGG, pool pattern CUGGAGCGAUNGNNUNNG; upper and lower strand joined, each 5' to 3', the first 9 letters being the upper strand.

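A pool of all variants was put on leaves of three Nicotiana benthamiana plants. Samples came from the inoculated region at 5 days, the leaf margin at 10 and upper systemic leaves at 12.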

Numbers give reads per thousand; 0 = not seen among the reads, higher = more abundant. Each value is the mean of three plants. "Pool" is the share in the plasmid pool used as inoculum, on the same scale. The inoculated region was read from the minus strand, the other sites from the plus strand.

CUGGAGCGAUGGGAUCAG (pool 0.937): inoculated region 0.201; leaf margin 0.0367; systemic leaves 0.
UUGGAGCGAUGGCUUUGG (pool 0.0162): inoculated region 0; leaf margin 0; systemic leaves 0.
CUGGAGCGAUUGUAUGUG (pool 0.954): inoculated region 0.355; leaf margin 0.0982; systemic leaves 0.00664.
CUGGAGCGAUCGAAUGGG (pool 0.760): inoculated region 0.302; leaf margin 0.0260; systemic leaves 0.
CUGGAGCGAUAGUCUUUG (pool 0.889): inoculated region 1.51; leaf margin 0.485; systemic leaves 0.
CUGGAGCGAUUGUUUGAG (pool 0.727): inoculated region 1.14; leaf margin 0.0160; systemic leaves 0.
CUGGAGCGAUCGGUUCAG (pool 1.20): inoculated region 0.261; leaf margin 0.0191; systemic leaves 0.
CUGGAGCGAUCGUUUAUG (pool 0.921): inoculated region 0.285; leaf margin 0.0617; systemic leaves 0.
CUGGAGCGAUCGCCUCUG (pool 0.873): inoculated region 0.295; leaf margin 0.0641; systemic leaves 0.
CUGGAGCGAUGGUAUACG (pool 0.970): inoculated region 0.283; leaf margin 0.0334; systemic leaves 0.
CUGGAGCGAUAGGAUGCG (pool 0.711): inoculated region 0.376; leaf margin 0.0191; systemic leaves 0.
CUGGAGCGAUCGUAUGAG (pool 0.614): inoculated region 0.324; leaf margin 0.0547; systemic leaves 0.
CUGGAGCGAUAGAAUGUG (pool 0.808): inoculated region 0.249; leaf margin 0.0276; systemic leaves 0.
CUGGAGCGAUUGUCUGGG (pool 0.873): inoculated region 1.40; leaf margin 0.430; systemic leaves 0.
CUGGAGCGAUAGACUCAG (pool 1.03): inoculated region 0.507; leaf margin 3.84; systemic leaves 0.
CUGGAGCGAUGGAGUACG (pool 0.840): inoculated region 0.283; leaf margin 0.0334; systemic leaves 0.
CUGGAGCGAUUGACUAUG (pool 0.921): inoculated region 0.255; leaf margin 0.0616; systemic leaves 0.
CUGGAGCGAUGGUAUGUG (pool 0.760): inoculated region 0.423; leaf margin 0.0479; systemic leaves 0.
CUGGAGCGAUAGAAUGCG (pool 0.873): inoculated region 0.252; leaf margin 0.0138; systemic leaves 0.
CUGGAGCGAUCGGAUAAG (pool 0.954): inoculated region 0.255; leaf margin 0.0494; systemic leaves 0.
CUGGAGCGAUCGUGUGUG (pool 0.760): inoculated region 0.275; leaf margin 0.0494; systemic leaves 0.
CUGGAGCGAUGGCUUGAG (pool 1.07): inoculated region 0.240; leaf margin 0.0303; systemic leaves 0.
CUGGAGCGAUUGGUUAAG (pool 0.840): inoculated region 0.175; leaf margin 0.0244; systemic leaves 0.
CUGGAGCGAUUGAUUGUG (pool 2.49): inoculated region 1.91; leaf margin 0.0282; systemic leaves 0.0199.
CUGGAGCGAUGGAUUGGG (pool 1.02): inoculated region 0.341; leaf margin 0.0419; systemic leaves 0.
CUGGAGCGAUAGCAUUCG (pool 0.937): inoculated region 0.277; leaf margin 0.0372; systemic leaves 0.
CUGGAGCGAUUGUCUUGG (pool 0.792): inoculated region 1.59; leaf margin 0.680; systemic leaves 0.572.
CUGGAGCGAUUGCAUGUG (pool 0.921): inoculated region 0.264; leaf margin 0.0472; systemic leaves 0.
CUGGAGCGAUGGUGUGGG (pool 0.873): inoculated region 0.239; leaf margin 0.0500; systemic leaves 0.
CUAGAGCGAUCGCUUCUG (pool 0.0162): inoculated region 0; leaf margin 0; systemic leaves 0.
CUGGAGCGAUUGCGUUUG (pool 0.776): inoculated region 0.236; leaf margin 0.0472; systemic leaves 0.
CUGGAGCGAUAGCCUAUG (pool 0.857): inoculated region 0.224; leaf margin 0.0318; systemic leaves 0.

The first 4 entries again:

sequence,pool,inoculated region,leaf margin,systemic leaves
CUGGAGCGAUGGGAUCAG,0.937,0.201,0.0367,0
UUGGAGCGAUGGCUUUGG,0.0162,0,0,0
CUGGAGCGAUUGUAUGUG,0.954,0.355,0.0982,0.00664
CUGGAGCGAUCGAAUGGG,0.760,0.302,0.0260,0

Wild type was 10.2 per thousand in the pool and the most common sequence in every sample (inoculated region 285, 367, 312; leaf margin 785, 865, 782; systemic leaves 854, 898, 915). The authors trace changes outside the varied positions to PCR and sequencing errors or to mutation in the plant; presence does not show that a variant is infectious alone. Samples held 36,693 to 63,082 reads, so the smallest values rest on one or two reads.